From ChEMBL document CHEMBL1154198, “Chemical genetics of Plasmodium falciparum” (Nature, 2010)
Some compounds may have been tested in ways that are not shown here.

Tested on: Plasmodium falciparum
Test: ST_JUDE: Plasmodium falciparum K1 EC50 (uM) as measured by SYBR green dye
Assay type: functional, organism-based

Which EC50 does the source give for `Nc1nc(N)c([N+](=O)[O-])nc1[N+](=O)[O-]` here?
Its EC50 is 3.54 µM.
